Measurements taken from ChEMBL document CHEMBL1828605, “Synthesis, antiviral activity, cytotoxicity and cellular pharmacology of l-3'-azido-2',3'-dideoxypurine nucleosides” (Eur J Med Chem, 2011).

Molecular target: Human immunodeficiency virus type 1 reverse transcriptase (Human immunodeficiency virus 1) (UniProt Q72547)
Test: Selectivity ratio of Kpol to Kd for dGTP to Kpol to Kd for compound at HIV1 reverse transcriptase

[N-]=[N+]=N[C@@H]1C[C@@H](n2cnc3c(O)nc(N)nc32)O[C@H]1COP(=O)(O)OP(=O)(O)OP(=O)(O)O
Selectivity ratio: 236
